Experimental data from the supplement of paper PMC9931576.
Human monoclonal antibodies against the spike receptor-binding domain (heavy:light variable regions). IC50 against pseudoviruses bearing the spike of naturally observed variants; lower = stronger; >10 µg/ml means not reached at the top dose. No active / inactive call. The stated detection limit is 0.0005 µg/ml; values near or below 0.001 µg/ml lie at the floor of the assay.

B1: BD56-198 (protein)
chain 1: QITLKESGPTLVKPTQTLTLTCTFSGFSLSTSGVSVGWIRQPPGKALEWLALIYWDDDKRYSPSVKSRLTLTKDTSKKQVVLTMTNVDPVDTATYYCVLKDYYGSGRSLNWGYFDYWGQGTLVTVSS
chain 2: DIQMTQSPSSLSASVGDRVTLTCRASQSINMYLNWYQQIPGEAPKLLIYAASSLQSGVPSRFSGSGSGTDFTLTITSLQAEDFATYYCQQSYSNVYTFGQGTKLEIK
B2: BD56-199 (protein)
chain 1: DVQLVQSGAEVRNPGESLMISCKVSGYNFATYWIGWVRQMSGKGLEWMGIIYPGDSETRYSPSFQGQVTISVDKSISTAYLQWTSLKASDTAMYYCVRDLCGGDCPFDYWGQGTLVTVSS
chain 2: EIVLTQSPATLSLSPGERATLSCGASQSVSSSYLAWYQQKPGLAPRLLIYDTSIRATGIPDRFSGSGSGTDFTLTISRLEPEDFAVYYCQQYGASPRFSFGQGTKLETK
B3: BD56-200 (protein)
chain 1: QLQLQESGPGLVKPSETLSLTCTVSGDSISRSFYYWGWIRQPPGKGLEWIGNIHNGGSTYYNPSLKSRVTMSIDTSKNRFSLKLSSVTATDTAVYYCARPTGFPDFGFDPWGPGTLVIVSS
chain 2: QSVLTQPPSASGTPGQRVTISCSGSSSNIGSNSVNWYQQLPGTAPKLLIYSNNQRPSGIPDRFSGSKSGTSASLALGGLQSEDEADYYCAAWDDSLNVWVFGGGTKLTVL
B4: BD56-201 (protein)
chain 1: QITLKESGPTLVKPTQTLTLTCTFSGFSLTTSGVSVGWIRQPPGEALEWLALIFWDDDKRYSPSLKSRLTITKDPSKNQIVLTMTNMGPVDTATYFCAHSAYSTSWYDHAFDFWGQGSLVTVSS
chain 2: QSVLTQPPSVSEAPRQRVTISCSGGSSNIGHNAVNWYQQLPGKAPKLLIYYDDLRPSGVSDRFSGSKSGTSASLAISGLQSEDEADYYCAAWDDSLNGPVFGGGTKLTVL
B5: BD56-205 (protein)
chain 1: QVQLVQSGTEVKKPGASVKVSCKASGYTFTSYGITWVRQAPGQGLEWMGWISAYNGNTNYAQKFQGRVTMTTDTSTSTAYMELRSLRSDDTAVYYCARDYDYVWGSYPTDFEWWGQGTLVTVSS
chain 2: QSALTQPASVSGSPGQSITISCTGTSGDVGSYNLVSWYQQHPGKAPKLMIYEISKRPSGVSNRFSGSKSGKRASLTISGLQAEDEADYYCCSYEGSSPFAHWVFGGGTKLTVL
B6: BD56-209 (protein)
chain 1: EVQLVQSGAEVKKAGEALKISCKCSGYFFISNWIAWVRQMPGKGLEWMGIIFPGDSDTTYSPSFQGQVTISVDKSITTAYLQWTSLKASDTAMYYCARRGSVWDLDFWGQGTLVTVSP
chain 2: QSVLTQPPSASGTPGQTVIISCSGSSSNIGGNPVNWYRQLPGTAPKLLIHNNNQRPAGVPDRFSGSKSGTSASLAISGLQSDDEAHYYCAPWDDRLNGWVFGGGTKLTVL

What was measured:
Experiment in all cases: pseudovirus neutralization IC50; higher = weaker neutralization
[1] = target: SARS-CoV-2 Omicron BA.1 spike pseudovirus
Procedure: (§1)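 Single-round VSV luciferase pseudovirus mixed with antibody dilutions for 1 h and put on Huh-7 cells for about a day; IC50 from the dose curve.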

[2] = target: SARS-CoV-2 Omicron BA.2 spike pseudovirus
Procedure: as §1

[3] = target: SARS-CoV-2 Omicron BA.2.75 spike pseudovirus
Procedure: as §1

[4] = target: SARS-CoV-2 Omicron BA.5 spike pseudovirus
Procedure: as §1

[5] = target: SARS-CoV-2 Omicron BQ.1.1 spike pseudovirus
Procedure: as §1

[6] = target: SARS-CoV-2 Omicron XBB spike pseudovirus
Procedure: as §1

[7] = target: SARS-CoV-2 early D614G spike pseudovirus
Procedure: as §1

Binder	pseudovirus neutralization IC50 [1] [µg/mL]	pseudovirus neutralization IC50 [2] [µg/mL]	pseudovirus neutralization IC50 [3] [µg/mL]	pseudovirus neutralization IC50 [4] [µg/mL]	pseudovirus neutralization IC50 [5] [µg/mL]	pseudovirus neutralization IC50 [6] [µg/mL]	pseudovirus neutralization IC50 [7] [µg/mL]
B1	4.07	5.84	2.7	3.9	2.88	2.93	2.47
B2	> 10	> 10	> 10	> 10	> 10	> 10	> 10
B3	> 10	> 10	> 10	> 10	> 10	> 10	> 10
B4	4.68	4.71	4.47	4.54	5.18	5.81	4.47
B5	0.468	0.688	1.04	0.461	2.77	1.61	0.859
B6	0.641	1.17	0.586	0.911	0.634	1.65	1.2
